# Source: the supplement of paper PMC3578754
# Fold change is the IC50 on the isolate divided by the IC50 on a reference virus; 1 = unchanged, higher = more resistant. Changes are given against the subtype B consensus. No active / inactive call. The values were gathered from many studies (numbered anew) with different assays, which the source does not name. Most viruses are clinical isolates; some are laboratory strains or clones with known resistance changes. Isolates with mixed residues are left out; stretches that were not sequenced show no change. Round top values that many isolates share are read here as limits; other very high values and 0.1 may be limits too.
# Legend:
# Assay in all cases: fold change of IC50 against reference virus; higher = more resistant
# [1] = compound: Cc1cn([C@H]2C[C@H](N=[N+]=[N-])[C@@H](CO)O2)c(=O)[nH]c1=O [zidovudine]
# Description: (§1)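 Cell-culture drug susceptibility tests of virus bearing the reverse transcriptase of each isolate, gathered from many studies.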
# [2] = compound: O=c1[nH]cnc2c1ncn2[C@H]1CC[C@@H](CO)O1 [didanosine]
# Description: as §1
# [3] = compound: Nc1ccn([C@H]2CC[C@@H](CO)O2)c(=O)n1 [zalcitabine]
# Description: as §1
# [4] = compound: Nc1nc(NC2CC2)c2ncn([C@H]3C=C[C@@H](CO)C3)c2n1 [abacavir]
# Description: as §1
# [5] = compound: Cc1cn([C@H]2C=C[C@@H](CO)O2)c(=O)[nH]c1=O [stavudine]
# Description: as §1
# [6] = compound: CC(C)Nc1cccnc1N1CCN(C(=O)c2cc3cc(NS(C)(=O)=O)ccc3[nH]2)CC1 [delavirdine]
# Description: as §1
# [7] = compound: Cc1ccnc2c1NC(=O)c1cccnc1N2C1CC1 [nevirapine]
# Description: as §1
# [8] = compound: O=C1Nc2ccc(Cl)cc2[C@@](C#CC2CC2)(C(F)(F)F)O1 [efavirenz]
# Description: as §1
Test System,fold change of IC50 against reference virus [1],fold change of IC50 against reference virus [2],fold change of IC50 against reference virus [3],fold change of IC50 against reference virus [4],fold change of IC50 against reference virus [5],fold change of IC50 against reference virus [6],fold change of IC50 against reference virus [7],fold change of IC50 against reference virus [8]
"HIV-1 isolate 318 (reverse transcriptase changes: Y115F K122E M184V F214L A272P K277R A376T A400T D460N S468T H483Y K512Q S519N, study 144)",2,5,3,6.8,2,,,
"HIV-1 isolate 478 (reverse transcriptase changes: K122E M184V F214L A272P K277R A376T A400T D460N S468T H483Y K512Q S519N, study 144)",3,2,3,2.9,2,,,
"HIV-1 isolate 519 (reverse transcriptase changes: Y115F K122E F214L A272P K277R A376T A400T D460N S468T H483Y K512Q S519N, study 144)",2,1,1,2.1,1,,,
"HIV-1 isolate 569 (reverse transcriptase changes: M41L L74V K103N D123E Q174K Y181C M184V T200A R211T T215Y V245M A272P I293V E297K, study 119)",,1.7,1.7,6.3,1.3,1.5,9.6,9.5
"HIV-1 isolate 830 (reverse transcriptase changes: L74V Y115F K122E M184V F214L A272P K277R A376T A400T D460N S468T H483Y K512Q S519N, study 144)",1,5,4,11,2,,,
"HIV-1 isolate 832 (reverse transcriptase changes: K65R L74V K122E M184V F214L A272P K277R A376T A400T D460N S468T H483Y K512Q S519N, study 144)",1,6,7,10,1,,,
"HIV-1 isolate 845 (reverse transcriptase changes: A62V V75I F77L K102Q F116Y Q151M S162C M184V K277R, study 110)",307,18.3,16.1,28.9,11.5,,,
"HIV-1 isolate 1004 (reverse transcriptase changes: K20R K122E I142V T165I M184V K277R A288S I293V, study 119)",0.9,1.6,0.9,3.5,0.6,0.3,0.7,
"HIV-1 isolate 1005 (reverse transcriptase changes: M41L L74V V106A K122E F214L T215Y A272P K277R M357T A376T A400T N447S D460N S468T S519N, study 68)",97,3.5,5.9,11.7,3.4,12.1,1.5,
"HIV-1 isolate 1013 (reverse transcriptase changes: M41L D67N K70R K102Q S162C Y181C T215Y K219Q K277R, study 110)",7.3,0.5,0.4,1,1.4,,,
"HIV-1 isolate 1124 (reverse transcriptase changes: K65R L74V K122E F214L A272P K277R A376T A400T D460N S468T H483Y K512Q S519N, study 144)",1,4,4,3.6,1,,,
"HIV-1 isolate 1257 (reverse transcriptase changes: K65R K122E M184V F214L A272P K277R A376T A400T D460N S468T H483Y K512Q S519N, study 144)",1,5,8,6.9,1,,,
"HIV-1 isolate 1260 (reverse transcriptase changes: L74V K122E F214L A272P K277R A376T A400T D460N S468T H483Y K512Q S519N, study 144)",2,3,4,3.8,1,,,
"HIV-1 isolate 1287 (reverse transcriptase changes: L74V Y115F K122E F214L A272P K277R A376T A400T D460N S468T H483Y K512Q S519N, study 144)",3,4,2,4,1,,,
